# In US9061984B2 (University of Louisville Research Foundation, Inc., priority 2008, dated 2015):
# Experiments:
# [1] = system: axenic amastigotes of L. amazonensis (strain MHOM/BR/76/LTB-012); conditions: for SI: IC50, macrophage/IC50, L. amazonensis, Table 7
# [2] = system: Trypanosoma cruzi (Tulahuen C4); experiment: In vitro anti-T. cruzi activity (β-galactosidase CPRG colorimetric assay in VERO monolayer); type: cell-based
# [3] = system: M. tuberculosis H37Rv; experiment: Conventional aerobic (MABA) culture assay, luminescence MIC; type: cell-based, Mycobacterium tuberculosis; conditions: VERO vs MABA MIC
# [4] = IC50, VERO/IC50, T. cruzi, Table 2
# [5] = Selectivity index = IC50, VERO/IC50, T. cruzi, Table 3
compound,measurement,setting,value
"COc1cc(O)cc(O)c1C(=O)/C=C/c1ccc2c(c1)OCO2 [Compound I-06, (2E)-3-(1,3-Benzodioxol-5-yl)-1-(2,4-dihydroxy-6-methoxyphenyl)-2-propen-1-one]",SI,[1],38.3
COc1cc(/C=N\Nc2ncnc3sc4c(c23)CCCC4)cc(OC)c1O [II-16],SI,[2]; [4],14.19
Fc1ccccc1/C=N\Nc1ncnc2sc3c(c12)CCCC3 [II-27],SI,[2]; [4],1.60
Clc1ccc(/C=N\Nc2ncnc3sc4c(c23)CCCC4)cc1 [II-28],SI,[2]; [4],4.15
C=CCOc1cc(OC)c(C(=O)/C=C/c2ccccc2Br)c(OCC=C)c1 [Compound I-16],SI,[2]; [4],1.01
same,SI,[2]; [5],1.0
same,SI,[1],0.7
"C[C@@H]1[C@H](O)[C@@H](C)/C=C/C=C/C=C/C=C/C=C/C=C/C=C/[C@H](O[C@@H]2O[C@H](C)[C@@H](O)[C@H](N)[C@@H]2O)C[C@@H]2O[C@](O)(C[C@@H](O)C[C@@H](O)[C@H](O)CC[C@@H](O)C[C@@H](O)CC(=O)O[C@H]1C)C[C@H](O)[C@H]2C(=O)O [Amphotericin B, reference compound]",SI,[1],76.0
same,Selectivity Index,[1]; Table 8b,43.5
"C=CCOc1cc(OC)c(C(=O)/C=C/c2cccc(OC)c2)c(OCC=C)c1 [Compound I-11, (2E)-1-[2-Methoxy-4,6-bis(2-propenyloxy)phenyl]-3-(3-methoxyphenyl)-2-propen-1-one]",SI,[1],1.5
"C=CCOc1cc(OC)c(C(=O)/C=C/c2ccc(OC)cc2)c(OCC=C)c1 [Compound I-10, (2E)-1-[2-Methoxy-4,6-bis(2-propenyloxy)phenyl]-3-(4-methoxyphenyl)-2-propen-1-one]",SI,[1],3.4
NNc1ncnc2sc3c(c12)CCCC3 [PC],Selectivity Index Lab B,[2],1.9
same,Selectivity Index H37Rv,[3],0.3
same,Selectivity Index,[1]; Table 8b,0.6
"C=CCOc1cc(OC)c(C(=O)/C=C/c2ccc(F)cc2)c(OCC=C)c1 [Compound I-23, (2E)-3-(4-Fluorophenyl)-1-[2-methoxy-4,6-bis(2-propenyloxy)phenyl]-2-propen-1-one]",SI,[1],1.5
C(=Cc1ccccc1)C=NNc1ncnc2sc3c(c12)CCCC3 [II-04],Selectivity Index Lab B,[2],14.6
same,Selectivity Index H37Rv,[3],0.1
same,Selectivity Index,[1],0.1
"COc1ccc(/C=C/C(=O)c2c(O)cc(O)cc2OC)cc1 [Compound I-05, (E)-1-(2,4-Dihydroxy-6-methoxyphenyl)-3-(4-methoxyphenyl)-2-propen-1-one]",SI,[1],16.6
"C=CCOc1cc(OC)c(C(=O)/C=C/c2ccccc2)c(OCC=C)c1 [Compound I-08, (2E)-1-[2-Methoxy-4,6-bis(2-propenyloxy)phenyl]-3-(phenyl)-2-propen-1-one]",SI,[1],1.6
N#Cc1ccc(C=NNc2ncnc3sc4c(c23)CCCC4)cc1 [II-32],Selectivity Index,[1]; Table 8b,5.0
"CC1CS(=O)(=O)CCN1/N=C/c1ccc([N+](=O)[O-])o1 (stereo not shown) [Nifurtimox, reference compound]",SI,[2],154.0
Cc1ccc(C=NNc2ncnc3sc4c(c23)CCCC4)cc1 [II-05],Selectivity Index,[1],0.5
"C=CCOc1cc(OC)c(C(=O)/C=C/c2ccc(Cl)cc2)c(OCC=C)c1 [Compound I-14, (2E)-3-(4-Chlorophenyl)-1-[2-methoxy-4,6-bis(2-propenyloxy)phenyl]-2-propen-1-one]",SI,[1],1.4
"C=CCOc1cc(OC)c(C(=O)/C=C/c2ccccn2)c(OCC=C)c1 [Compound I-27, (2E)-1-[2-Methoxy-4,6-bis(2-propenyloxy)phenyl]-3-(2-pyridinyl)-2-propen-1-one]",SI,[2]; [4],1.49
same,SI,[2]; [5],1.5
same,SI,[1],11.4
"C=CCOc1cc(OC)c(C(=O)/C=C/c2cc(OC)c(OC)c(OC)c2)c(OCC=C)c1 [Compound I-20, (2E)-1-[2-Methoxy-4,6-bis(2-propenyloxy)phenyl]-3-(3,4,5-trimethoxyphenyl)-2-propen-1-one]",SI,[1],1.5
"C=CCOc1cc(OC)c(C(=O)/C=C/c2ccc([N+](=O)[O-])cc2)c(OCC=C)c1 [Compound I-13, (2E)-1-[2-Methoxy-4,6-bis(2-propenyloxy)phenyl]-3-(4-nitrophenyl)-2-propen-1-one]",SI,[1],1.6
"C=CCOc1cc(OC)c(C(=O)/C=C/c2ccccc2F)c(OCC=C)c1 [Compound I-15, (2E)-3-(2-Fluorophenyl)-1-[2-methoxy-4,6-bis(2-propenyloxy)phenyl]-2-propen-1-one]",SI,[1],1.4
FC(F)(F)c1ccccc1C=NNc1ncnc2sc3c(c12)CCCC3 [II-25],Selectivity Index Lab B,[2],0.6
same,Selectivity Index H37Rv,[3],1.3 (1.3)
same,Selectivity Index,[1],2.6
"C=CCOc1cc(/C=C/C(=O)c2c(O)cc(O)cc2OC)cc(OCC=C)c1Br [Compound I-42, (2E)-3-(3,5-Bis(2-propenyloxy)-4-bromophenyl)-1-(2,4-dihydroxy-6-methoxyphenyl)-2-propen-1-one]",SI,[1],10.5
Fc1ccc(C=NNc2ncnc3sc4c(c23)CCCC4)cc1 [II-26],Selectivity Index Lab B,[2],1.0
same,Selectivity Index H37Rv,[3],0.6
same,Selectivity Index,[1],1.0
CC(C)(C)C=NNc1ncnc2sc3c(c12)CCCC3 [II-36],Selectivity Index H37Rv,[3],0.3
same,Selectivity Index,[1],1.6
C(=N/Nc1ncnc2sc3c(c12)CCCC3)/c1ccccc1 [II-01],SI,[2]; [4],7.40
CC(C)=NNc1ncnc2sc3c(c12)CCCC3 [II-44],Selectivity Index Lab B,[2],2.7
same,Selectivity Index H37Rv,[3],0.5
same,Selectivity Index,[1]; Table 8b,5.9

# Like-named read-outs stand apart in the source and are kept apart here.
